Test system: HeLa-CD4-βgal cells
Assay: XTT viability (cytotoxicity) assay, uninfected HeLa-CD4-βgal cells (Experiment 4)
Settings: control antiviral 0.2 μM, raw absorbance 490 nm

CC(C)OC(=O)[C@H](C)N[P@](=O)(CO[C@H](C)Cn1cnc2c(N)ncnc21)Oc1ccccc1 [TAF, tenofovir alafenamide]
Viability of Uninfected HeLa-CD4-β gal Cells (A490): 0.896
